# Experimental data: patent publication US12435088B2, “Salicyl-adenosinemonosulfamate analogs and uses thereof” (priority 2018, dated 2025)
# Sequences of proteins named here, by UniProt entry; tags and fusion partners are left off.
# UniProt P71716, whole entry, added parts left off: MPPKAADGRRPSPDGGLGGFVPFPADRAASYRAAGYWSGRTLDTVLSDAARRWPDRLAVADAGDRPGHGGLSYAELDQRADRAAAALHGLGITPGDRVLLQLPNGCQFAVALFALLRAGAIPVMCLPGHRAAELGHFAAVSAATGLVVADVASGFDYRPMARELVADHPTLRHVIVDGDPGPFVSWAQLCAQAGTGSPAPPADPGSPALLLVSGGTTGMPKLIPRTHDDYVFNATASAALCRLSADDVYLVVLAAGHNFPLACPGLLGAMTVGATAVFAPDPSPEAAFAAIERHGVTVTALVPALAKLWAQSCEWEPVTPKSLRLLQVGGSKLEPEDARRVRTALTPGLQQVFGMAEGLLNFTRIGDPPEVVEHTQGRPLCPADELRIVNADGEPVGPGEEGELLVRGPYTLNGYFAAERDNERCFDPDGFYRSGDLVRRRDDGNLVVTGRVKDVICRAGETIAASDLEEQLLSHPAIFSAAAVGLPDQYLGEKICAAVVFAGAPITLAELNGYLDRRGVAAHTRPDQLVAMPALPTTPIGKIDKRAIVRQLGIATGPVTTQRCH
# Target: H10MbtA^opt (MbtAtb) (Mycobacterium tuberculosis (strain ATCC 25618 / H37Rv), UniProt P71716)
# Assay: biochemical
smiles,measurement,value
"Nc1ncnc2c1ncn2[C@@H]1O[C@H](COS(N)(=O)=O)[C@@H](O)[C@H]1O [compound 7, AMS]",IC50,> 1000 µM
